Data: PMC5539350

Tested on: O=c1cc[nH]c(=O)[nH]1
Assay: cells, lysate or membranes

For (Escherichia coli O157:H7), the Km was 0.57 ± 0.11 µM and 0.56 ± 0.10 µM.

Values joined by “and” are separate entries in the source; they are usually repeats but may differ in a detail not shown here. Equal entries are not always repeated.
